Measured values from several laboratories, pooled; numbers as filed in NIAID ChemDB.

Shared fields: growth or infection tests; organism: Cryptococcus neoformans

A number after MIC or MFC names an inhibition level or a share of isolates. Lines come from different laboratories, so protocols vary. Blank or dashed fields: not listed here.

SMILES	method	strain or isolate	endpoint	result
O=C1CSC(=O)N1CC(O)(Cn1nccn1)c1ccc(F)cc1F	-	CNCYP51	MIC80	11.29 µg/mL
Cc1nc(C)c(C(=O)NNC(=S)NC23CC4CC(CC(C4)C2)C3)s1	-	PLM 589	MIC	3.12 µg/mL
CC(C)CC1NC(=O)CC(CCCCCCCCC(C)O)OC(=O)C(CC(C)C)NC(=O)C(CC(C)C)NC(=O)C(CC(C)C)NC(=O)C(C(C)C)NC(=O)C(CC(=O)O)NC(=O)C(CC(C)C)NC1=O	visual reading	MTCC 4406	MFC	4 µg/mL
CC(C)C(CCC(C)C1CCC2C3CC=C4C[C@@H](O)CCC4(C)C3CCC12C)NS(=O)(=O)O	-	A.34144	MIC90	0.39 µg/mL
Clc1ccc(COC(Cn2ccnc2)c2ccc(Cl)cc2Cl)c(Cl)c1	-	-	MIC	0.9 µM
CSC1NN=C(c2sc(C)nc2C)N1C1C2CC3CC(C2)CC1C3	-	PLM 589	MIC	0.53 µg/mL
CC(C)C(N)CCC(C)C1CCC2C3CC=C4C[C@@H](O)CCC4(C)C3CCC12C	-	IFM.40092	MIC90	≤0.05 µg/mL
CCCCCOc1ccc(-c2cc(-c3ccc(C(=O)N[C@H]4C[C@@H](O)[C@@H](O)NC(=O)[C@@H]5[C@@H](O)[C@@H](C)CN5C(=O)[C@H]([C@H](O)CC(N)=O)NC(=O)[C@H]([C@H](O)[C@@H](O)c5ccc(O)c(OS(=O)(=O)O)c5)NC(=O)[C@@H]5C[C@@H](O)CN5C(=O)[C@H]([C@@H](C)O)NC4=O)cc3)no2)cc1	-	FMR 8400	MIC	64 µg/mL
CC(=O)NC1=NN(C(C)=O)C2(CC(c3ccccc3)N(C(C)=O)C(c3ccccc3)C2)S1	-	-	MIC	>100 µg/mL
Oc1ccc(O)c(C=Nc2ccccc2O)c1	-	ATCC 28957	MIC99	8 µg/mL
C[C@H](n1nnnc1CCN1CCN(c2cccc(Cl)c2)CC1)[C@](O)(Cn1cncn1)c1ccc(F)cc1F	-	LA314	MIC	>8 µg/mL
CCNC(=S)N/N=C(\N)c1ccccn1	-	LMM 820	MIC100	>416.7 µM
C[C@H](n1nnnc1CCN1CCN(C(c2ccccc2)c2ccccc2)CC1)[C@](O)(Cn1cncn1)c1ccc(F)cc1F	-	LA314	MIC	8 µg/mL
O=C(/C(=C1/SCCN1c1ccc(Cl)cc1)n1ccnc1)c1ccc(Cl)cc1	-	-	MIC	>100 µg/mL
Cc1nc(C)c(C2=NNC(SCc3ccc(C(F)(F)F)cc3)N2C2C3CC4CC(C3)CC2C4)s1	-	PLM 589	MIC	25 µg/mL
CC(N1CCN(c2ccc(-n3cnnn3)cc2)C1=O)[C@](O)(Cn1cncn1)c1ccc(F)cc1F	-	14 strains	MIC50	0.13 µg/mL
CN(CCOc1ccc(CC2SC(=O)N(CC(O)(Cn3nccn3)c3ccc(F)cc3F)C2=O)cc1)c1ccccn1	-	CNCYP51	MIC80	13.45 µg/mL
CCCCn1c(-c2sc(C)nc2C)n[nH]c1=S	-	PLM 589	MIC	3.12 µg/mL
Oc1ccccc1N=Cc1ccc(O)c(O)c1O	-	96806	MIC99	11.3 µg/mL
COCCOCCOCCOCCOCCOCCNC(=O)[C@H]1[C@@H]2C[C@@H](O[C@@H]3O[C@H](C)[C@@H](O)[C@H](N)[C@@H]3O)/C=C/C=C/C=C/C=C/C=C/C=C/C=C/[C@H](C)[C@@H](O)[C@H](C)[C@H](C)OC(=O)C[C@H](O)C[C@H](O)[C@@H](O)CC[C@H](O)C[C@H](O)C[C@](O)(C[C@@H]1O)O2	-	3 strains	MIC	3.2 µg/mL
CC(C)C(CCC(C)C1CC[C@@]2(C)C3=C(CCC12C)C1(C)CC[C@H](O)C(C)(C)C1CC3)NC1CCCCC1	-	A.34144	MIC90	12.5 µg/mL
CCN1CCS/C1=C(/C#N)n1ccnc1	-	-	MIC	>100 µg/mL
CCOC(=O)c1c(C)nc(OCCCNc2ccnc3cc(Cl)ccc23)nc1-c1ccccc1	-	27JF	MIC99	16 µg/mL
CCCCN1C(c2sc(C)nc2C)=NNC1SC	-	PLM 589	MIC	6.25 µg/mL
C[C@H](n1nnnc1CCN1CCN(c2ccc([N+](=O)[O-])cc2)CC1)[C@](O)(Cn1cncn1)c1ccc(F)cc1F	-	LA314	MIC	>8 µg/mL
Cc1cc(-c2cc(C)on2)n(C)n1	-	-	MIC	>200 µM
C[N+](C)(C)CCOP(=O)([O-])OCCCCCCCCCCCCCCCCCCCCCCOP(=O)([O-])OCC[N+](C)(C)C	-	-	MIC	0.04 µg/mL
N=C(N)c1ccc(OCCCCCCOc2ccc(C(=N)N)cc2)cc1	-	H99	MIC80	6.25 µg/mL
C[C@H](n1nnnc1CCN1CCN(Cc2ccccc2)CC1)[C@](O)(Cn1cncn1)c1ccc(F)cc1F	-	LA314	MIC	>16 µg/mL
CCOC(=O)c1c(C)nc(NCCCCNc2ccnc3cc(Cl)ccc23)nc1-c1ccccc1	-	WP	MIC99	8 µg/mL
Nc1[nH]c(=O)ncc1F	-	H59	MIC	8 µg/mL
Cc1cc(-c2nn(CCO)c(C)c2N=O)no1	-	-	MIC	22 µM
CC(C)C(N)CCC(C)C1CC[C@@]2(C)C3=C(CCC12C)C1(C)CC[C@H](O)C(C)(C)C1CC3	-	IFM.40092	MIC90	0.1 µg/mL
OC(c1cc(-c2ccccc2)nc2c(Cl)cc(Cl)cc12)C1CCCCN1	-	ATCC 90013	MIC	1.5 µg/mL
CCC(C)n1ncn(-c2ccc(N3CCN(c4ccc(OC[C@H]5CO[C@](Cn6cncn6)(c6ccc(Cl)cc6Cl)O5)cc4)CC3)cc2)c1=O	-	TIMM0354	MIC	0.0313 µg/mL
O=C1S/C(=C\c2ccc(F)cc2F)C(=O)N1CC(O)(Cn1nccn1)c1ccc(F)cc1F	-	-	MIC80	8.36 µg/mL
CCn1nc(C)c([N+](=O)[O-])c1-c1cc(C)on1	-	-	MFC	>200 µM
CC(=O)NC1=NN(C(C)=O)C2(CC(c3ccccc3)N(C(C)=O)C(c3ccccc3)C2C)S1	-	-	MIC	>100 µg/mL
Cc1cc(-c2nn(C)c(C)c2N=O)no1	-	-	MFC	3.1 µM
C[C@@H](n1ncn(-c2ccc(OCC(F)(F)C(F)F)cc2)c1=O)[C@](O)(Cn1cncn1)c1ccc(F)cc1F	-	DUMC 125.96	MFC	>16 µg/mL
Clc1ccc(C(Cn2ccnc2)OCc2csc3c(Cl)cccc23)c(Cl)c1	-	12 strains	Mean MIC	0.5 µg/mL
OC(c1cc(-c2ccc(C(F)(F)F)cc2)nc(-c2ccc(C(F)(F)F)cc2)c1)C1CCCCN1	-	ATCC90112	MIC	0.4 µg/mL
Oc1cccc(C=Nc2ccccc2O)c1	broth dilution	VM-MCMMPI	MIC	4 µg/mL
CCCCn1nc(-c2cc(C)on2)c(N=O)c1C	-	-	MFC	9 µM
N#CC(=C1SCCCS1)n1ccnc1	-	-	MIC	>100 µg/mL
Oc1ccccc1N=Cc1ccc(F)cc1	-	ATCC 28957	MIC99	4 µg/mL
N=C(N)c1ccc(OCCCC(O)COc2ccc(C(=N)N)cc2)cc1	-	114.96	MIC80	0.78 µg/mL
Oc1ccccc1N=Cc1cccc(O)c1O	broth dilution	VM-MCMMPI	MIC	4 µg/mL
O=C1S/C(=C\c2ccc(Br)cc2)C(=O)N1CC(O)(Cn1nccn1)c1ccc(F)cc1F	-	CNCYP51	MIC80	7.67 µg/mL
CCOC(=O)c1cnc(NCCCCNc2ccnc3cc(Cl)ccc23)nc1C	-	LMM 820	MIC99	8 µg/mL
N#Cc1ccc(/C=C2\SC(=O)N(CC(O)(Cn3nccn3)c3ccc(F)cc3F)C2=O)cc1	-	-	MIC80	68.46 µg/mL
C[C@H](n1nnc(CCN2CCN(c3ccccn3)CC2)n1)[C@](O)(Cn1cncn1)c1ccc(F)cc1F	-	LA314	MIC	8 µg/mL
N=C(N)c1ccc(NCCCNc2ccc(C(=N)N)cc2[N+](=O)[O-])c([N+](=O)[O-])c1	-	135.95	MIC80	3.12 µg/mL
C[C@H](n1nnc(CCN2CCN(c3cccc(Cl)c3)CC2)n1)[C@](O)(Cn1cncn1)c1ccc(F)cc1F	-	LA314	MIC	4 µg/mL
O[C@](Cn1cncn1)(Cn1cnc(/C=C/c2ccc(OCC(F)(F)C(F)F)cc2)n1)c1ccc(F)cc1F	-	TIMM0362	MIC	0.2 µg/mL
CC(C)N=C(N)c1ccc2nc(-c3ccc(CCc4ccc(-c5nc6ccc(C(N)=NC(C)C)cc6[nH]5)cc4)cc3)[nH]c2c1	-	114.95	MFC	0.39 µg/mL
CC1=CS/C(=C(/C#N)n2ccnc2)S1	-	-	MIC	>100 µg/mL

A second listing of 7 rows from above:

{"SMILES": "Nc1[nH]c(=O)ncc1F", "strain or isolate": "H59", "endpoint": "MIC", "result": "8 µg/mL"}
{"SMILES": "CC1=CS/C(=C(/C#N)n2ccnc2)S1", "endpoint": "MIC", "result": ">100 µg/mL"}
{"SMILES": "C[C@H](n1nnnc1CCN1CCN(Cc2ccccc2)CC1)[C@](O)(Cn1cncn1)c1ccc(F)cc1F", "strain or isolate": "LA314", "endpoint": "MIC", "result": ">16 µg/mL"}
{"SMILES": "CCCCn1c(-c2sc(C)nc2C)n[nH]c1=S", "strain or isolate": "PLM 589", "endpoint": "MIC", "result": "3.12 µg/mL"}
{"SMILES": "CCCCCOc1ccc(-c2cc(-c3ccc(C(=O)N[C@H]4C[C@@H](O)[C@@H](O)NC(=O)[C@@H]5[C@@H](O)[C@@H](C)CN5C(=O)[C@H]([C@H](O)CC(N)=O)NC(=O)[C@H]([C@H](O)[C@@H](O)c5ccc(O)c(OS(=O)(=O)O)c5)NC(=O)[C@@H]5C[C@@H](O)CN5C(=O)[C@H]([C@@H](C)O)NC4=O)cc3)no2)cc1", "strain or isolate": "FMR 8400", "endpoint": "MIC", "result": "64 µg/mL"}
{"SMILES": "CCCCN1C(c2sc(C)nc2C)=NNC1SC", "strain or isolate": "PLM 589", "endpoint": "MIC", "result": "6.25 µg/mL"}
{"SMILES": "CCC(C)n1ncn(-c2ccc(N3CCN(c4ccc(OC[C@H]5CO[C@](Cn6cncn6)(c6ccc(Cl)cc6Cl)O5)cc4)CC3)cc2)c1=O", "strain or isolate": "TIMM0354", "endpoint": "MIC", "result": "0.0313 µg/mL"}